Measurements reported in patent US7495027B2, “3-aryl-4-hydroxyfuranone compounds and the human and animal health use thereof” (Wyeth, priority 2003, dated 2009).
In brackets after ≈: the same amount, converted by molar mass.

The chains behind the UniProt entries cited, without tags or fusion partners.
UniProt P14900, whole entry: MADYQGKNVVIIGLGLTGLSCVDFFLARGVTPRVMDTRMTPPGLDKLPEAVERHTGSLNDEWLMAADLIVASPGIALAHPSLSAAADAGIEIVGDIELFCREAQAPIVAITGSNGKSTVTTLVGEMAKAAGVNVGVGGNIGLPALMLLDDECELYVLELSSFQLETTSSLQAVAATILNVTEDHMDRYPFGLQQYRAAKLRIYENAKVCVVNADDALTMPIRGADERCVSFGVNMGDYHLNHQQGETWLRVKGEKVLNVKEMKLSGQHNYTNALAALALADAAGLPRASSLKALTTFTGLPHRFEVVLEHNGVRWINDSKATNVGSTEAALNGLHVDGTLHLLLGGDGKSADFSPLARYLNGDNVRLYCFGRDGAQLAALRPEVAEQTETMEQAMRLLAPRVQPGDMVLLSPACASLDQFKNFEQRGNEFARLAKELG
UniProt P0A749, whole entry: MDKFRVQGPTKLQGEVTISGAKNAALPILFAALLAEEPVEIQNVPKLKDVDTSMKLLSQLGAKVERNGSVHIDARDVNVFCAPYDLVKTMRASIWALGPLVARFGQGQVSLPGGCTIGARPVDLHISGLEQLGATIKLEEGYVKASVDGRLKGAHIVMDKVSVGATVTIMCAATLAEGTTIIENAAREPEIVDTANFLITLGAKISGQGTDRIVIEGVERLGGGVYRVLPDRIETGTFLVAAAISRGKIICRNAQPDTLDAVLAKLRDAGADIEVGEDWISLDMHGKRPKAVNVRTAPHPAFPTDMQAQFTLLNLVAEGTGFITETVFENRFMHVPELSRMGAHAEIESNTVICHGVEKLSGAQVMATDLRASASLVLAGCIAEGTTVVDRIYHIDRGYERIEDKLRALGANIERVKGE
UniProt P17952, whole entry: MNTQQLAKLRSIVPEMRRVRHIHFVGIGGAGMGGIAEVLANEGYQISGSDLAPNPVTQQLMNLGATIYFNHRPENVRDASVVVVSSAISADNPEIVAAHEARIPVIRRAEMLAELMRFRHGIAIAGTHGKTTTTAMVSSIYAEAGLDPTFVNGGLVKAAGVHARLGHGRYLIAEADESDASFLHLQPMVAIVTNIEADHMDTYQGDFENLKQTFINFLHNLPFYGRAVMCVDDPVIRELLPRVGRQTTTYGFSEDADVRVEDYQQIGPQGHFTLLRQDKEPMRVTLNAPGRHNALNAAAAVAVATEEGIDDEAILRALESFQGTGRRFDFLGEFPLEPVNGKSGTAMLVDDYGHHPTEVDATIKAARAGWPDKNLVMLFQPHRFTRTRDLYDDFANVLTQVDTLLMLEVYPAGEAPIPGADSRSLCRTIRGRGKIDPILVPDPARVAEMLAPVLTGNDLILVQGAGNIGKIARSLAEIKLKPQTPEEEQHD
UniProt P08373, whole entry: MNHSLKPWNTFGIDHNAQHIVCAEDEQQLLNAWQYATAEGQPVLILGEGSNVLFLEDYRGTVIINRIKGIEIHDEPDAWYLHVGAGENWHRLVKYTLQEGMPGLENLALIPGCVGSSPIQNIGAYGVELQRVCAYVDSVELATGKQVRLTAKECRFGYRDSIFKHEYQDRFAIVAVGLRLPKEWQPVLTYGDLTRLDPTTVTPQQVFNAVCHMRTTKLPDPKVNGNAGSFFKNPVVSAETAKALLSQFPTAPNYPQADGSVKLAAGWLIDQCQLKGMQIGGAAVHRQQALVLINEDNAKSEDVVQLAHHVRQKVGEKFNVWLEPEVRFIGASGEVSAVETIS

Columns and labels:
[1] = molecular target: E. coli Uridine-diphosphate-N-acetylmuramoyl-L-alanine: D-glutamate liease, MurD (Escherichia coli, UniProt P14900); conditions: (E) E. coli enzyme
[2] = system: staphylococci; experiment: Minimum inhibitory concentration, microdilution broth method, staphylococci; type: cell-based; conditions: Mueller-Hinton broth, 18-22 hours at 35° C.
Method: (§1) Evaluation of the Minimum Inhibitory Concentration of Test Compounds Against A Variety of Bacterial Strains
(§2) In this evaluation the minimal inhibitory concentration (MIC) of test compounds against Gram positive and Gram negative bacteria is performed using the microdilution broth method as recommended by the National Committee for Clinical Laboratory Standards (Approved Standards M7-A5 2000). Mueller-Hinton broth is used for the enterobacteriaceae, staphylococci and enterococci. Streptococci are also tested in Mueller-Hinton broth supplemented with 5% horse blood (LHB). Test organisms include recent clinical isolates that are resistant to methicillin, penicillin and/or vancomycin. […]. The MIC is determined after incubation for 18-22 hours at 35° C. in ambient air.

[3] = molecular target: E. coli UDP-N-acetylglucosamine enolpyruvoyl transferase, MurA (Escherichia coli, UniProt P0A749); conditions: (E) E. coli enzyme
[4] = molecular target: E. coli Uridine-diphosphate-N-acetvimuramoyl: L-alanine lipase, MurC (Escherichia coli, UniProt P17952); experiment: Inhibitory activity against MurC (E. coli); conditions: (E) E. coli enzyme
Method: S. aureus and E. coli Uridine-diphosphate-N-acetvimuramoyl: L-alanine lipase, MurC
The buffer is prepared from aqueous reagents with the following final concentrations: 83 mM Tris/HCl (pH 8.0), 50 mM MgC12, and 2 mM ATP.
Preparation of Enzyme Solution:
A 1 mg/mL stock solution of MurC is prepared in a buffer consisting of 20 mM Tris/HCl (pH 8.5) with 2.5 μM BME. The stock solution is further diluted with the buffer to give a final enzyme concentration of 100 μg/mL for the E. coli stock solution and 70 μg/mL for the S. aureus stock solution.
Preparation of Test Compound Solutions:
All test solutions are prepared in DMSO as 10 mg/mL, then diluted with 50 mM Tris/HCl (pH 8.5) to 100 μg/mL.
Preparation of Stop Solution:
The stop solution is prepared by stirring 1 part 4.2% ammonium molydbate in 4N HCl with 2 parts 0.045% malachite green for 30 min.
In this evaluation, the inhibitory activity of a test compound against MurC, the enzyme which catalyzes the third step of bacterial cell wall bioxynthesis is determined. […] (Lanzetta et al., Analytical Biochemistry, 1979, 95) Optical density readings are taken at 660 nm using a Molecular Devices Spectra Max 250 with Soft Max software. […]
Using these values the IC50 is determined by linear regression analysis.

[5] = system: Streptococci; experiment: Minimum inhibitory concentration, microdilution broth method, streptococci; type: cell-based; conditions: Mueller-Hinton broth with 5% horse blood, 18-22 hours at 35° C.
Method: as §1, §2

[6] = molecular target: E. coli Enopyruvyl-UPD-N-acetylglucosamine reductase, Mur B (Escherichia coli, UniProt P08373); conditions: (E) E. coli enzyme
[7] = system: enterococci; experiment: Minimum inhibitory concentration, microdilution broth method, enterococci; type: cell-based; conditions: Mueller-Hinton broth, 18-22 hours at 35° C.
Method: as §1, §2

O=C1OC(=Cc2cccc(C(F)(F)F)c2)C(O)=C1c1cccc2ccccc12
MurD IC50 [1]: >25 (E) μg/mL
MIC S. aureus GC 1131 ([2]; S. aureus GC 1131): 8 µg/mL (≈ 20.9 µM)
MIC S. aureus GC 4543 ([2]; S. aureus GC 4543): 8 µg/mL (≈ 20.9 µM)
MurA IC50 [3]: 17 (E) μg/mL
MurC IC50 [4]: 9 (E) μg/mL
MIC S. pneumo GC 1894 [5]: 0.5 µg/mL (≈ 1.31 µM)
MurB IC50 [6]: 11 (E) μg/mL
MIC E. faecalis GC 2242 ([7]; E. faecalis GC 2242): 8 µg/mL (≈ 20.9 µM)
MIC E. faecalis GC 4555 ([7]; E. faecalis GC 4555): 32 µg/mL (≈ 83.7 µM)
